Pooled drug test results. Numbers come from NIAID ChemDB, via PubChem.

Common to all: growth or infection tests; organism: Respiratory syncytial virus; measure: EC50

ECn is the concentration giving n% inhibition of infection, replication or growth.

CC1(C)[C@@H](CO)CC[C@@]1(C)Cn1cnc2c(N)ncnc21 ; read by: cytopathic effect ; cells: HeLa ; value: >400 µg/mL
NC(=O)CCN(CCC(N)=O)S(=O)(=O)c1cccc(Nc2nc(Nc3cccc(S(=O)(=O)N(CCC(N)=O)CCC(N)=O)c3)nc(Nc3ccc(-c4ccc(Nc5nc(Nc6cccc(S(=O)(=O)N(CCC(N)=O)CCC(N)=O)c6)nc(Nc6cccc(S(=O)(=O)N(CCC(N)=O)CCC(N)=O)c6)n5)cc4S(=O)(=O)O)c(S(=O)(=O)O)c3)n2)c1 ; read by: cytopathic effect ; cells: HEP-2 ; strain: 18537/TYPE B ; value: 0.25 µg/mL
Cc1cc(C)c2nc(NC3CCN(CCS(N)(=O)=O)CC3)n(Cc3nc(C)ccc3O)c2c1 ; read by: cytopathic effect ; cells: HeLa ; value: 0.003 µM
CC1(CO)CCC(Cn2cnc3c(=O)[nH]c(N)nc32)C1(C)C ; read by: cytopathic effect ; cells: HeLa ; value: >400 µg/mL
Cc1ccc(O)c(Cn2c(NC3CCN(CC(O)CO)CC3)nc3c(C)cccc32)n1 ; read by: cytopathic effect ; cells: HeLa ; value: 0.013 µM
O=C(/C=C/c1ccc(O)c(O)c1)O[C@H]1[C@H](O)C[C@](O)(C(=O)O)C[C@H]1OC(=O)/C=C/c1ccc(O)c(O)c1 ; read by: cytopathic effect ; cells: HEP-2 ; value: 0.5 µg/mL
Cc1cc(C)c2nc(NCCN3CCCC3)n(Cc3nc(C)ccc3O)c2c1 ; read by: cytopathic effect ; cells: HeLa ; value: 0.02 µM
CC1(CO)CCC(Cn2nnc3c(=O)[nH]c(N)nc32)C1(C)C ; read by: cytopathic effect ; cells: HeLa ; value: >400 µg/mL
COc1cc(Cc2cnc(-n3c(-c4ccccc4)nc4ccc(Br)cc4c3=O)nc2N)cc(OC)c1OC ; read by: cytopathic effect ; cells: HeLa ; value: >16 µg/mL
Nc1nc2c(ncn2[C@H]2OC[C@@H](CO)C2O)c(=O)[nH]1 ; read by: cytopathic effect ; cells: HeLa ; value: >80 µg/mL
Nc1ccn([C@@H]2C=C(CO)[C@@H](O)[C@H]2O)c(=O)n1 ; read by: cytopathic effect ; cells: HeLa ; strain: LONG ; value: 0.04 µg/mL
CCOc1ncn(-c2ccc(NC(=S)Nc3cnccn3)cc2)n1 ; read by: cytopathic effect ; cells: HeLa ; strain: LONG ; value: 8 µg/mL
O=C(Nc1ccc(NC(=S)Nc2cccc(C(F)(F)F)c2)cc1)c1ccco1 ; cells: HFF ; value: >10 µg/mL
CC1(CO)CCC(Cn2nnc3c(Cl)nc(N)nc32)C1(C)C ; read by: cytopathic effect ; cells: HeLa ; value: >400 µg/mL
COCCNC(=O)c1cc2c(s1)-c1ccccc1N(C(=O)c1ccc(NC(=O)c3ccccc3-c3ccccc3)cc1)CC2 ; read by: plaque count ; cells: HeLa ; strain: LONG ; value: 0.98 µM
CCCOc1ncn(-c2ccc(NC(=S)NC3O[C@H](CO)[C@@H](O)[C@H](O)[C@H]3O)cc2)n1 ; read by: cytopathic effect ; cells: HeLa ; strain: LONG ; value: 100 µg/mL
COc1cc(OC)c(NC(=S)Nc2ccc(NC(=O)c3ccco3)c(C)c2)cc1Cl ; cells: HFF ; value: >10 µg/mL
Cc1cc(C)c2nc(Nc3ccc(C#N)cc3)n(Cc3nc(C)ccc3O)c2c1 ; read by: cytopathic effect ; cells: HeLa ; value: 100 µM
CC(C)Oc1ccccc1NC(=O)Nc1ccc2cnccc2n1 ; read by: plaque count ; value: >30 µg/mL
COc1cc(OC)c(NC(=S)Nc2ccc(NC(=O)c3ccco3)cc2)cc1Cl ; cells: HFF ; value: >10 µg/mL
Cc1ccc(O)c(Cn2c(NC3CCNCC3)nc3c(C)cccc32)n1 ; read by: cytopathic effect ; cells: HeLa ; value: 0.002 µM
COC(=O)c1cc(Nc2ccc(Nc3nc(Nc4cccc(S(=O)(=O)N(CCC(N)=O)CCC(N)=O)c4)nc(Nc4cccc(S(=O)(=O)N(CCC(N)=O)CCC(N)=O)c4)n3)cc2S(=O)(=O)[O-])ccc1-c1ccc(Nc2ccc(Nc3nc(Nc4cccc(S(=O)(=O)N(CCC(N)=O)CCC(N)=O)c4)nc(Nc4cccc(S(=O)(=O)N(CCC(N)=O)CCC(N)=O)c4)n3)cc2S(=O)(=O)[O-])cc1C(=O)OC ; read by: ELISA ; cells: HFF ; strain: A2 ; value: >25 µM
O=C(Nc1ccc(NC(=S)Nc2ccccc2)cc1)c1ccco1 ; cells: HFF ; value: >10 µg/mL
Cc1cn([C@H]2OC[C@@H](CO)C2F)c(=O)[nH]c1=O ; read by: cytopathic effect ; cells: HeLa ; value: >80 µg/mL
CCOc1ncn(-c2ccc(NC(=S)NC34CC5CC(CC(C5)C3)C4)cc2)n1 ; read by: cytopathic effect ; cells: HeLa ; strain: LONG ; value: 8 µg/mL
O=C(Nc1ccc(NC(=S)Nc2cc(C(F)(F)F)cc(C(F)(F)F)c2)cc1)c1csnn1 ; cells: HFF ; value: >10 µg/mL
Cc1cc(C)c2nc(NC3CCN(CCO)CC3)n(Cc3nc(C)ccc3O)c2c1 ; read by: cytopathic effect ; cells: HeLa ; value: 0.003 µM
O=C(NCCc1ccccc1)C1=Cc2ccncc2CC1 ; read by: cytopathic effect ; cells: MA-104 ; strain: A2 ; value: >344 µM
CCCOc1ncn(-c2ccc(NC(=S)Nc3cnccn3)cc2)n1 ; read by: cytopathic effect ; cells: HeLa ; strain: LONG ; value: 4 µg/mL
O=c1ccn([C@@H]2O[C@H](/C=C/C=C(Br)Br)[C@@H](O)[C@H]2O)c(=O)[nH]1 ; cells: HeLa ; value: ≥200 µM
Nc1nc(-n2c(-c3ccccc3)nc3ccc(Br)cc3c2=O)nnc1-c1cccc(Cl)c1Cl ; read by: cytopathic effect ; cells: HeLa ; value: >16 µg/mL
Cc1ccc(O)c(Cn2c(NC3CCN(CC(O)c4ccccc4)CC3)nc3c(C)cccc32)n1 ; read by: cytopathic effect ; cells: HeLa ; value: 0.251 µM
O=C(NC1CC1)c1cc2c(s1)-c1ccccc1N(C(=O)c1ccc(NC(=O)c3ccccc3-c3ccccc3)cc1)CC2 ; read by: plaque count ; cells: HeLa ; strain: YM-53403-R02 Y1631H mutation ; value: >25 µM
CC(C)CS[C@H]1C[C@@H](n2cnc3c(N)ncnc32)[C@H](O)[C@@H]1O ; read by: cytopathic effect ; cells: HeLa ; value: >80 µg/mL
Cc1ccc(O)c(Cn2c(NCCCN3CCCCC3)nc3ccccc32)n1 ; read by: cytopathic effect ; cells: HeLa ; value: 0.316 µM
Cc1cccc2c1CSSC2 ; read by: cytopathic effect ; cells: HeLa ; strain: LONG ; value: 11.9 µM
Cc1cc(C)c2nc(NCCc3ccccc3)n(Cc3nc(C)ccc3O)c2c1 ; read by: cytopathic effect ; cells: HeLa ; value: 100 µM
O=c1[nH]c(=O)n([C@@H]2C[C@H](CO)C[C@H]2CO)cc1I ; cells: HeLa ; value: >100 µg/mL
Cc1ccc(O)c(Cn2c(NC3CCN(CC(O)Cc4ccccc4)CC3)nc3c(C)cccc32)n1 ; read by: cytopathic effect ; cells: HeLa ; value: 0.398 µM
O=c1[nH]c(=O)n(C2C[C@H](CO)[C@@H](CO)C2)cc1I ; cells: HeLa ; value: >100 µg/mL
Nc1ncnc2c1ncn2[C@H]1OC[C@@H](CO)C1O ; read by: cytopathic effect ; cells: HeLa ; value: >80 µg/mL
c1ccc2c(c1)CSSC2 ; read by: cytopathic effect ; cells: HeLa ; strain: LONG (A) ; value: 4.5 µM
Cc1cc(C)c2nc(NCCCn3ccnc3)n(Cc3nc(C)ccc3O)c2c1 ; read by: cytopathic effect ; cells: HeLa ; value: 0.501 µM
CCOc1ncn(-c2ccc(NC(=S)NC3O[C@H](CO)[C@@H](O)[C@H](O)[C@H]3O)cc2)n1 ; read by: cytopathic effect ; cells: HeLa ; strain: LONG ; value: 40 µg/mL
CC1(C)[C@@H](CO)CC[C@@]1(C)Cn1cc(I)c(=O)[nH]c1=O ; read by: cytopathic effect ; cells: HeLa ; value: >400 µg/mL
O=c1ccn([C@@H]2C[C@H](CO)C[C@H]2CO)c(=O)[nH]1 ; cells: HeLa ; value: >100 µg/mL
O=C(/C=C/c1ccc(O)c(O)c1)O[C@@H]1CC(O)(C(=O)O)C[C@@H](OC(=O)/C=C/c2ccc(O)c(O)c2)C1O ; read by: cytopathic effect ; cells: HEP-2 ; strain: TYPE A2 ; value: 0.163 µg/mL
Cc1ccc(O)c(Cn2c(NC3CCN(CC(=O)C(C)C)CC3)nc3c(C)cccc32)n1 ; read by: cytopathic effect ; cells: HeLa ; value: 0.794 µM
NC(=O)CCN(CCC(N)=O)S(=O)(=O)c1cccc(Nc2nc(Nc3cccc(S(=O)(=O)N(CCC(N)=O)CCC(N)=O)c3)nc(Nc3ccc(Nc4ccc(-c5ccc(Nc6ccc(Nc7nc(Nc8cccc(S(=O)(=O)N(CCC(N)=O)CCC(N)=O)c8)nc(Nc8cccc(S(=O)(=O)N(CCC(N)=O)CCC(N)=O)c8)n7)cc6S(=O)(=O)[O-])cc5CO)c(CO)c4)c(S(=O)(=O)[O-])c3)n2)c1 ; read by: ELISA ; cells: HFF ; strain: A2 ; value: >25 µM
CCc1nc(-n2c(-c3ccccc3)nc3ccc(Br)cc3c2=O)nc(N)c1-c1ccc(Cl)cc1 ; read by: cytopathic effect ; cells: HeLa ; value: >16 µg/mL
Cc1ccc2c(c1)CSSC2 ; read by: cytopathic effect ; cells: HeLa ; strain: LONG ; value: 5.1 µM
COc1cc(OC)c(NC(=S)Nc2ccc(NC(=O)c3ccco3)c(OC)c2)cc1Cl ; cells: HFF ; value: >10 µg/mL
CCC(CO)N1CCC(Nc2nc3c(C)cccc3n2Cc2nc(C)ccc2O)CC1 ; read by: cytopathic effect ; cells: HeLa ; value: 0.063 µM
Cc1ccc(O)c(Cn2c(NCCCC(N)=O)nc3ccccc32)n1 ; read by: cytopathic effect ; cells: HeLa ; value: 50.1 µM
CC1(C)[C@@H](CO)CC[C@@]1(C)Cn1ccc(=O)[nH]c1=O ; read by: cytopathic effect ; cells: HeLa ; value: >400 µg/mL
COc1ccc(CCNc2nc3ccccc3n2Cc2nc(C)ccc2O)cc1OC ; read by: cytopathic effect ; cells: HeLa ; value: 10 µM
Cc1cccc(NC(=S)Nc2ccc(NC(=O)c3ccco3)cc2)c1 ; cells: HFF ; value: >10 µg/mL
Cc1cc(C)c2nc(NCCN3CCCCC3)n(Cc3nc(C)ccc3O)c2c1 ; read by: cytopathic effect ; cells: HeLa ; value: 0.063 µM
CC(=O)N[C@H]1C[C@@H](n2cnc3c(N)ncnc32)[C@H](O)[C@@H]1O ; cells: HFF ; value: >100 µg/mL
CC(=O)O[C@H]1[C@@H](Oc2c(C)c(O)c3c(=O)cc(C)oc3c2C)O[C@H](CO)[C@@H](O)[C@@H]1O ; read by: cytopathic effect ; cells: HEP-2 ; value: 1.3 µg/mL

4 of the rows above, restated:

structure	read by	cells	strain	value
O=C(Nc1ccc(NC(=S)Nc2ccccc2)cc1)c1ccco1		HFF		>10 µg/mL
O=c1[nH]c(=O)n([C@@H]2C[C@H](CO)C[C@H]2CO)cc1I		HeLa		>100 µg/mL
Cc1cc(C)c2nc(NCCN3CCCC3)n(Cc3nc(C)ccc3O)c2c1	cytopathic effect	HeLa		0.02 µM
COCCNC(=O)c1cc2c(s1)-c1ccccc1N(C(=O)c1ccc(NC(=O)c3ccccc3-c3ccccc3)cc1)CC2	plaque count	HeLa	LONG	0.98 µM

An empty or dashed field is not shown. Rows are shuffled and stem from different studies.